# Source: ChEMBL document CHEMBL5034007, “Discovery of Methylene Thioacetal-Incorporated α-RgIA Analogues as Potent and Stable Antagonists of the Human α9α10 Nicotinic Acetylcholine Receptor for the Treatment of Neuropathic Pain” (2021)
# Amino acid sequences for entries named in this document (tags omitted). A change or cut given only in a name is not applied to a line headed by its entry.
# UniProt P41145: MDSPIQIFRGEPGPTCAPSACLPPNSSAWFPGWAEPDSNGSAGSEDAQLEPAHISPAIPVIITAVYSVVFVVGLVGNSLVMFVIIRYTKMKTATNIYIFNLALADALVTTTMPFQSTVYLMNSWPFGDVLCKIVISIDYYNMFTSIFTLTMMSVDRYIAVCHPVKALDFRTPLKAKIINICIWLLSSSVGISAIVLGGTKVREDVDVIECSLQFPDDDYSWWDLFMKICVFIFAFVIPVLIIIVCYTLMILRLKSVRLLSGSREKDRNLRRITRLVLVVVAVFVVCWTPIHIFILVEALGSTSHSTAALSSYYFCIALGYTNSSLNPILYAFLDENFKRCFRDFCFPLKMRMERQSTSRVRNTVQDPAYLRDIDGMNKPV
# UniProt P24557: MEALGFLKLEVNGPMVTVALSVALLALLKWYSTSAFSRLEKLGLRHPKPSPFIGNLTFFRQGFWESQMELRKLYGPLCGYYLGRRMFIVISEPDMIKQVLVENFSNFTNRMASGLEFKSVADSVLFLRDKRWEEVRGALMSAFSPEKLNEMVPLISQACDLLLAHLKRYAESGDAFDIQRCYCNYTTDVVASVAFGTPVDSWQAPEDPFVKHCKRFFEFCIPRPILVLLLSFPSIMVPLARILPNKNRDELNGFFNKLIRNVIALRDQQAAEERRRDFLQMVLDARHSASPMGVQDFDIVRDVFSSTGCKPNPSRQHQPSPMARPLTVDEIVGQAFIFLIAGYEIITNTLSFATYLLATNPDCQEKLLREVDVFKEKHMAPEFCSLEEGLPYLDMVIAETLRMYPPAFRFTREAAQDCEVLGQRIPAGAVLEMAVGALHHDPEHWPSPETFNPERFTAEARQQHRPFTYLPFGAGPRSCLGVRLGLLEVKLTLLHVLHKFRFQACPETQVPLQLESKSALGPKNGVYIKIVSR
# UniProt P08172, whole entry, looked up: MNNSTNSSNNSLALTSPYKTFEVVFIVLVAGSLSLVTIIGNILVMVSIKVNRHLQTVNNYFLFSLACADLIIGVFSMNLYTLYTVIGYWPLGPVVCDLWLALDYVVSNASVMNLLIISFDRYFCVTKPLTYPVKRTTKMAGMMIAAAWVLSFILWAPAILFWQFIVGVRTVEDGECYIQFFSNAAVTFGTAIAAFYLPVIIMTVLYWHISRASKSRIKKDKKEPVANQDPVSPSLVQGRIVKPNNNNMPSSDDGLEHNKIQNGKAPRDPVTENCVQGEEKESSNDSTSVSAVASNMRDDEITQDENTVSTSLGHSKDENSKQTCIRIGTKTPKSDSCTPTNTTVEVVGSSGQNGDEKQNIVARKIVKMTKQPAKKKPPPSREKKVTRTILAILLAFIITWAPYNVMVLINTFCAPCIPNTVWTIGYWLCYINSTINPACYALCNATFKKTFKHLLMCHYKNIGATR
# UniProt P29275: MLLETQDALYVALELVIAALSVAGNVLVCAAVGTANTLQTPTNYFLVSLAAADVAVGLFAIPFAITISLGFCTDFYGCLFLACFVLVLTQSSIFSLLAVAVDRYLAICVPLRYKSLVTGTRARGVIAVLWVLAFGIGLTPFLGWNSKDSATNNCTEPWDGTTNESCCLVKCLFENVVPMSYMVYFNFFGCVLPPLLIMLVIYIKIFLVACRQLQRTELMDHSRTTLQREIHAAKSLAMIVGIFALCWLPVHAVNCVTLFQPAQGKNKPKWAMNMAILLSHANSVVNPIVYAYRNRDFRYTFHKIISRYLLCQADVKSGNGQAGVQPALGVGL
# UniProt P35372, whole entry, looked up: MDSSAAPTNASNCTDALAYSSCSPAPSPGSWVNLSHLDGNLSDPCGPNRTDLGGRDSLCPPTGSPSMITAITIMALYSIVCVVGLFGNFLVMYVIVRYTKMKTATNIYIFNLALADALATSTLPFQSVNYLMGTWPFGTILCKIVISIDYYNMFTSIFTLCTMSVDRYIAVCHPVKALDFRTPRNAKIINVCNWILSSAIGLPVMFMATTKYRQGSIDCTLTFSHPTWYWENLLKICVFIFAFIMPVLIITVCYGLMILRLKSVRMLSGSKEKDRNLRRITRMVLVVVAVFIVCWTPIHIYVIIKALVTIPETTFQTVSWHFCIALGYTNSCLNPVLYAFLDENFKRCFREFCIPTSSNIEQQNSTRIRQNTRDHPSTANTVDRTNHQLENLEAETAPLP
# UniProt Q00961: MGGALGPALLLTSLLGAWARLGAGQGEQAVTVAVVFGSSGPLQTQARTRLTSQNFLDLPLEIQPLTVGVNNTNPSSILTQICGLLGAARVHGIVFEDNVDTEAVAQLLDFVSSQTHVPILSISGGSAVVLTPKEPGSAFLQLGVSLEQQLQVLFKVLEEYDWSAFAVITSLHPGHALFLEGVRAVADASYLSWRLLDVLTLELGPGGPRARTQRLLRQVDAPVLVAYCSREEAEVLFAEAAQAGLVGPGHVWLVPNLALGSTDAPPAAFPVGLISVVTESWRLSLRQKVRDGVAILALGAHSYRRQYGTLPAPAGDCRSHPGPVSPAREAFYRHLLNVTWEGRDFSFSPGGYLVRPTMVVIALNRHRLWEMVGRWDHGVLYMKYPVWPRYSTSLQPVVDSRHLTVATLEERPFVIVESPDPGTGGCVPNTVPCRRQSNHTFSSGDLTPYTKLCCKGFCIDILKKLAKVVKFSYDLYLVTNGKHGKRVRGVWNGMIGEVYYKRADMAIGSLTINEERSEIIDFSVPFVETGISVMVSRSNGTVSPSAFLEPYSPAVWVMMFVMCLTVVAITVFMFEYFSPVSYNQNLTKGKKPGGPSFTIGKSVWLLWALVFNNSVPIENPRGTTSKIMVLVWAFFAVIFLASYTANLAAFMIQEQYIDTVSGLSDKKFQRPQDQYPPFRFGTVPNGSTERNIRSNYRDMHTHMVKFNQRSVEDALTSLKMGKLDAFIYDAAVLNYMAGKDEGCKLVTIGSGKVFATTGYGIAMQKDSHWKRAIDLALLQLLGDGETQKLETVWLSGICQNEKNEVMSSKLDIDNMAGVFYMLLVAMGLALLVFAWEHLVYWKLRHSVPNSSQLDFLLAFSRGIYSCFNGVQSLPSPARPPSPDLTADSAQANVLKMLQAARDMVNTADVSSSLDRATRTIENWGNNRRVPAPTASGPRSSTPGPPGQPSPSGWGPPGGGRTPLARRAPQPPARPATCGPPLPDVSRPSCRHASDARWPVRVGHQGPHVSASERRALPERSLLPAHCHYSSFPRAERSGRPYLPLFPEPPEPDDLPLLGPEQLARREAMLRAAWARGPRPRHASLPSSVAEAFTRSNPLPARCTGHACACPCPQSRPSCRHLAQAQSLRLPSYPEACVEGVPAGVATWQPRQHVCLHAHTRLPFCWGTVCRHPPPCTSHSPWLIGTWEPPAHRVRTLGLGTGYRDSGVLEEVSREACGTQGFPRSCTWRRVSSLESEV
# UniProt Q8VHN2: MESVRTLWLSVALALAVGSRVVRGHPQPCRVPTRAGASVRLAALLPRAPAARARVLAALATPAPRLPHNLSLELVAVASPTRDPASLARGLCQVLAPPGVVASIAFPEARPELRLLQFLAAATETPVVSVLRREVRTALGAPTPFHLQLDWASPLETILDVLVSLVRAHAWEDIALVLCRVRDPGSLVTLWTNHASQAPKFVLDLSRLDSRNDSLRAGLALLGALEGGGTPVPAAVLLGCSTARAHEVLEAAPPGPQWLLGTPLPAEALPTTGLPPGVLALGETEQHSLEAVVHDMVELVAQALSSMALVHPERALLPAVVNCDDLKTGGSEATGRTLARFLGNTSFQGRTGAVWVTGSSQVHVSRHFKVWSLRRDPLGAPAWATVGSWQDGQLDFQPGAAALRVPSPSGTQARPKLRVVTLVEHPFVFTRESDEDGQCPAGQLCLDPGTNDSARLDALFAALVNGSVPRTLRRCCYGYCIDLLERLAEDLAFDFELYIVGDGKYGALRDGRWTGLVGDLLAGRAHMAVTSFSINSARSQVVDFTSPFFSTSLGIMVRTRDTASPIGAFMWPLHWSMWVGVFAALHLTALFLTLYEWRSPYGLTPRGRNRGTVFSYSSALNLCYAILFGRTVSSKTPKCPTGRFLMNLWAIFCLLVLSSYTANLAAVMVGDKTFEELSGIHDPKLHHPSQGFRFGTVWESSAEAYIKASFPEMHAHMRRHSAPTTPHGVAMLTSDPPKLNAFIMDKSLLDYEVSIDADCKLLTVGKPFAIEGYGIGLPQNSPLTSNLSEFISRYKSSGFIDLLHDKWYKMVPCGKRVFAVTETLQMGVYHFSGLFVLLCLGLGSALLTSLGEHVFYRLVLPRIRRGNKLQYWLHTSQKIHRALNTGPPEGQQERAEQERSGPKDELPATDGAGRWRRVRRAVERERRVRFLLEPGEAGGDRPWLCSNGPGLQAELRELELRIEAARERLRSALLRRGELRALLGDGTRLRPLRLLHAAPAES
# UniProt P22303: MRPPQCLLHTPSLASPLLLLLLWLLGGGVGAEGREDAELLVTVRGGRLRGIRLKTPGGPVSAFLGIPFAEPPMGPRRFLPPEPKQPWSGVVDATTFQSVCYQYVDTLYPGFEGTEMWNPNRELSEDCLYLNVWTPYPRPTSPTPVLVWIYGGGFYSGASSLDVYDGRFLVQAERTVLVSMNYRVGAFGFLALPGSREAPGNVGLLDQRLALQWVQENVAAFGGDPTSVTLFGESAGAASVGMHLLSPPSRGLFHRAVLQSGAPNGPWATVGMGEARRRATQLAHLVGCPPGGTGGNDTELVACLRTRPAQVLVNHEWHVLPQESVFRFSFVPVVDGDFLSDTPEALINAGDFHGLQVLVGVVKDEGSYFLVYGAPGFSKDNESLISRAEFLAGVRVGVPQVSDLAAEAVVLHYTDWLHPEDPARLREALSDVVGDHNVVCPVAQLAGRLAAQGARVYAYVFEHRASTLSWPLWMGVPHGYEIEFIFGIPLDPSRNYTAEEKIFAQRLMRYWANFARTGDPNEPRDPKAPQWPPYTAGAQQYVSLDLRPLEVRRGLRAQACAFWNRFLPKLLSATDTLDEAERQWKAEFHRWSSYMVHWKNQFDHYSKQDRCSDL
# UniProt P34981: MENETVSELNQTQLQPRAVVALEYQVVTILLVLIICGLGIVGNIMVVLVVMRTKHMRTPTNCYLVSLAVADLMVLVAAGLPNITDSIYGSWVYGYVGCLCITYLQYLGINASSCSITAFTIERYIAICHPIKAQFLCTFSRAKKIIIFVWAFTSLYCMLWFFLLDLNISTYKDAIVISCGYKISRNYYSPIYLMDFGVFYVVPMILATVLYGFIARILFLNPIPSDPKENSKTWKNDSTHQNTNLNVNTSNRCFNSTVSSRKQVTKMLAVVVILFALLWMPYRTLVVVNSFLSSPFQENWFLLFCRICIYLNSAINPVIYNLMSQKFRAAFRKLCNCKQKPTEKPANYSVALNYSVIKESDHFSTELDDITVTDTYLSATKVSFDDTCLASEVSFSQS
# UniProt P0DMS8, whole entry, looked up: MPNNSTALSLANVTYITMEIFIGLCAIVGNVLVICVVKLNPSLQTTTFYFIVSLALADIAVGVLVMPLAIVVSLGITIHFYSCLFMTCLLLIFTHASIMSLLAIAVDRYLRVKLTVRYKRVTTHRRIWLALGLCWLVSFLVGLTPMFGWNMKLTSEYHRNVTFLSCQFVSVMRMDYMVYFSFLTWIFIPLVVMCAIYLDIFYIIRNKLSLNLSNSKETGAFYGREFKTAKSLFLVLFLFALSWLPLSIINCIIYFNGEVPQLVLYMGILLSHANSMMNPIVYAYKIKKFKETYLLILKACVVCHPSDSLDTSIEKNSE
# UniProt P41587: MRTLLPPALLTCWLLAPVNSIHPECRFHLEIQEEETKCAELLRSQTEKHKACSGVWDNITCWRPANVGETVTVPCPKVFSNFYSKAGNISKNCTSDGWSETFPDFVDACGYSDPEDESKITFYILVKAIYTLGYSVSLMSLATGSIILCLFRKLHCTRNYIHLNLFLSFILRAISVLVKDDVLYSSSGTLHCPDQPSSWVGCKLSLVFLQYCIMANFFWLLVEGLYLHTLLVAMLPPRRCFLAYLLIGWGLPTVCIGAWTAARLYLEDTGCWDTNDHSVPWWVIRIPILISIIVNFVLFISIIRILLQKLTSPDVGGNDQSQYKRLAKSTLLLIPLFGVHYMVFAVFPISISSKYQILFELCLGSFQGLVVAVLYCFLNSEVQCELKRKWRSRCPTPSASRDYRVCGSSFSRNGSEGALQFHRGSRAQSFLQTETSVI
# UniProt P08913, whole entry, looked up: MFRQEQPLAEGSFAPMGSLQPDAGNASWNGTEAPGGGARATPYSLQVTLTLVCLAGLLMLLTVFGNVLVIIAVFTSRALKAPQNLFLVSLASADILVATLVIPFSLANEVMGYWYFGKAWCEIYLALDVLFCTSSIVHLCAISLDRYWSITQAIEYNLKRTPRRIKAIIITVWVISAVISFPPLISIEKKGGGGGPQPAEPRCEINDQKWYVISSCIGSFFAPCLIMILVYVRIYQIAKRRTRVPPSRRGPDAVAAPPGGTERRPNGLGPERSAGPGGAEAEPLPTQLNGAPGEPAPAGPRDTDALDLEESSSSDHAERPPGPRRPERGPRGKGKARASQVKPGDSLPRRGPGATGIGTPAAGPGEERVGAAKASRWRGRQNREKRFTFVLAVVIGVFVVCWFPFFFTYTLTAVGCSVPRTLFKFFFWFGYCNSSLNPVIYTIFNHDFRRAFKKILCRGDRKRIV
# Assays:
# [1] = target: Endothelin-1 receptor (Homo sapiens) (UniProt P25101); test: Displacement of [125I]endothelin-1 from human recombinant endothelin ETA receptor at 10 uM after 120 mins by scintillation counting analysis relative to control
# [2] = target: Kappa-type opioid receptor (Homo sapiens) (UniProt P41145); test: Displacement of [3H]U69593 from human kappa receptor at 10 uM after 60 mins by scintillation counting analysis relative to control
# [3] = target: Neuronal acetylcholine receptor; alpha4/beta2 (Homo sapiens) (UniProt P17787+P43681); test: Displacement of [3H]cytisine from recombinant human alpha4beta2 nAChR at 10 uM after 120 mins by scintillation counting method relative to control
# [4] = target: Corticotropin-releasing factor receptor 1 (Homo sapiens) (UniProt P34998); test: Displacement of [125I]sauvagine from recombinant human CRF1 receptor at 10 uM after 120 mins by scintillation counting analysis relative to control
# [5] = target: Thromboxane-A synthase (Homo sapiens) (UniProt P24557); test: Inhibition of TXA2 synthetase (unknown origin); settings: concentration not given here
# [6] = target: Muscarinic acetylcholine receptor M1 (Homo sapiens) (UniProt P11229); test: Displacement of [125I]pirenzepine from human recombinant M1 receptor at 10 uM after 60 mins by scintillation counting analysis relative to control
# [7] = target: Muscarinic acetylcholine receptor M2 (Homo sapiens) (UniProt P08172); test: Displacement of [3H]AF-DX 384 from human recombinant M2 receptor at 10 uM after 60 mins by scintillation counting analysis relative to control
# Rattus norvegicus [8] = species on record: Rattus norvegicus; test: Displacement of [3H]nitrendipine from rat L-type calcium channel dihydropyridine binding site at 10 uM by radioligand binding assay relative to control
# [9] = target: Adenosine receptor A2b (Homo sapiens) (UniProt P29275); test: Displacement of [3H]- CPX from adenosine A2B receptor (unknown origin) at 10 uM by scintillation counting analysis relative to control
# [10] = target: Adenosine receptor A2a (Homo sapiens) (UniProt P29274); test: Displacement of [3H]-CGS 21680 from human recombinant adenosine A2A receptor at 10 uM after 120 mins by scintillation counting analysis relative to control
# Rattus norvegicus [11] = species on record: Rattus norvegicus; test: Displacement of [3H]batrachotoxinin from rat brain sodium channel site 2 at 10 uM after 60 mins by scintillation counting analysis relative to control
# [12] = target: Type-1 angiotensin II receptor (Homo sapiens) (UniProt P30556); test: Displacement of [125I]-AT-II from human recombinant AT1 receptor at 10 uM after 120 mins by scintillation counting analysis relative to control
# [13] = target: Mu-type opioid receptor (Homo sapiens) (UniProt P35372); test: Displacement of [3H]DAMGO from human recombinant mu receptor at 10 uM after 120 mins by scintillation counting analysis relative to control
# [14] = target: Histamine H2 receptor (Homo sapiens) (UniProt P25021); test: Displacement of [125I]APT from recombinant human histamine H2 receptor at 10 uM after 120 mins by scintillation counting analysis relative to control
# [15] = target: Glutamate NMDA receptor (Rattus norvegicus) (UniProt P35439+Q00959+Q00960+Q00961+Q62645+Q8VHN2+Q9R1M7); test: Displacement of [3H]CGP 39653 from rat brain NMDA receptor at 10 uM after 60 mins by scintillation counting method relative to control
# [16] = target: Acetylcholinesterase (Homo sapiens) (UniProt P22303); test: Inhibition of acetylcholinesterase (unknown origin); settings: concentration not given here
# [17] = target: Thyrotropin-releasing hormone receptor (Homo sapiens) (UniProt P34981); test: Displacement of [3H]Me-TRH from human recombinant TRH receptor at 10 uM after 120 mins by scintillation counting analysis relative to control
# [18] = target: Cysteinyl leukotriene receptor 1 (Homo sapiens) (UniProt Q9Y271); test: Displacement of [3H]LTD4 from recombinant human CysLT1 receptor at 10 uM after 60 mins by scintillation counting method relative to control
# [19] = target: Adenosine receptor A3 (Homo sapiens) (UniProt P0DMS8); test: Displacement of [125I]AB-MECA from human recombinant adenosine A3 receptor at 10 uM after 120 mins by scintillation counting analysis relative to control
# [20] = target: Vasoactive intestinal polypeptide receptor 2 (Homo sapiens) (UniProt P41587); test: Displacement of [125I]VIP from VPAC2 receptor (unknown origin) at 10 uM by scintillation counting analysis relative to control
# [21] = target: Alpha-2A adrenergic receptor (Homo sapiens) (UniProt P08913); test: Displacement of [3H]-RX821002 from adrenergic alpha 2 receptor (unknown origin) at 10 uM by scintillation analysis relative to control
# [22] = target: Delta-type opioid receptor (Homo sapiens) (UniProt P41143); test: Displacement of [3H]DADLE from human recombinant Delta opioid receptor at 10 uM after 60 mins by scintillation counting analysis relative to control; settings: filed as antagonist
# Rattus norvegicus [23] = species on record: Rattus norvegicus; test: Displacement of [125I]apamin from rat brain SkCa channel at 10 uM after 60 mins by scintillation counting analysis relative to control; settings: filed as antagonist
# [24] = target: Cannabinoid receptor 2 (Homo sapiens) (UniProt P34972); test: Displacement of [3H]WIN 55212-2 from human recombinant CB2 receptor at 10 uM after 120 mins by scintillation counting analysis relative to control
# [25] = target: Neuromedin-K receptor (Homo sapiens) (UniProt P29371); test: Displacement of [3H]SR 142801 from human recombinant NK3 receptor at 10 uM after 120 mins by scintillation counting analysis relative to control
# [26] = target: Vasoactive intestinal polypeptide receptor 1 (Homo sapiens) (UniProt P32241); test: Displacement of [125I]VIP from human recombinant VPAC1 receptor at 10 uM after 60 mins by scintillation counting analysis relative to control
compound,measurement,setting,value
C[C@H](O)[C@H]1NC(=O)[C@@H]2NC(=O)[C@@H](NC(=O)CN)CSSC[C@H](NC(=O)[C@H](CCCNC(=N)N)NC(=O)[C@@H]3CCCN3C(=O)[C@H](CC(O)O)NC1=O)C(=O)N[C@@H](CCCNC(=N)N)C(=O)N[C@@H](Cc1ccc(O)c(I)c1)C(=O)N[C@@H](CCC(N)=O)C(=O)N[C@H](C(=O)N[C@H](CC(=O)N[C@@H](CCCNC(=N)N)C(=O)O)Cc1ccc(O)cc1)CSCS2,Activity,[1],-29.7%
same,Activity,[2],0.6%
same,Activity,[3],-4.7%
same,Activity,[4],14.2%
same,inhibition,[5],16.9%
same,Activity,[6],-16.8%
same,Activity,[7],-8.5%
same,Activity,Rattus norvegicus [8],-3.1%
same,Activity,[9],-8.6%
same,Activity,[10],6.3%
same,Activity,Rattus norvegicus [11],-9.3%
same,Activity,[12],-5.3%
same,Activity,[13],-3.9%
same,Activity,[14],-4.4%
same,Activity,[15],2%
same,inhibition,[16],8.9%
same,Activity,[17],-4%
same,Activity,[18],2.3%
same,Activity,[19],-11.7%
same,Activity,[20],0.2%
same,Activity,[21],-10%
same,Activity,[22],41.6%
same,Activity,Rattus norvegicus [23],42.4%
same,Activity,[24],-3.8%
same,Activity,[25],-9.1%
same,Activity,[26],-5.7%
